Results deposited as PubChem BioAssay AID624099 (ICCB-Longwood, 2012)
Assay: 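Human genes that papillomavirus E2 requires to repress the HPV18 LCR promoter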 (primary screen). System: human C33A cervical carcinoma cells (HPV-negative) stably expressing BPV1 E2 and an HPV18 LCR luciferase reporter. Reagent: siRNA pool against human genes, 40 nM. Duration: 72 h. Detection: 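HPV18 LCR reporter light per well, converted to plate-wise z-scores that exclude control wells, and averaged over triplicate plates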. Scale: mean z-score and z-score: higher = stronger reporter signal, weaker E2 silencing. Active means: 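Hit if mean z-score reaches 2 and two or more of three replicate z-scores also reach 2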.
Shown is an unselected part of about 21,000 deposited reagents. Over the whole deposit, 497 (2.4%) got an active call. 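Higher z means weaker E2 silencing; only reporter increases were scored, and knock-downs that hurt cell survival may mask genuine repressor factors.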 The numbers tell different reagents against one gene apart.

| gene | reagent | mean z-score | z-score, replicate A | z-score, replicate B | z-score, replicate C | Call |
| --- | --- | --- | --- | --- | --- | --- |
| KRTAP9-4 | 1 | -0.73 | -0.37 | -0.96 | -0.86 | inactive |
| PARD6A | 1 | 0.39 | 0.75 | 0.46 | -0.03 | inactive |
| LEUTX | 1 | -0.23 | -0.32 | -0.29 | -0.09 | inactive |
| NDUFA8 | 1 | -0.02 | -0.24 | 0.1 | 0.08 | inactive |
| MTRFR | 1 | -0.55 | -0.36 | -0.7 | -0.58 | inactive |
| TM4SF19 | 1 | 0.08 | -0.4 | -0.23 | 0.86 | inactive |
| PEX7 | 1 | 0.16 | 0.28 | -0.08 | 0.29 | inactive |
| RPS2P6 | 1 | -0.14 | -0.29 | -0.21 | 0.07 | inactive |
| TYSND1 | 1 | -1.63 | -1.63 | -1.36 | -1.9 | inactive |
| ARAF | 1 | 0.02 | -0.33 | 0.33 | 0.07 | inactive |
| SMIM9 | 1 | 0.72 | 1.01 | 0.44 | 0.71 | inactive |
| VWC2L | 1 | -0.74 | -1.08 | -0.92 | -0.23 | inactive |
| GUSBP14 | 1 | -0.23 | -0.2 | -0.18 | -0.32 | inactive |
| GUSBP14 | 2 | -0.71 | -0.69 | -0.99 | -0.45 | inactive |
| ADO | 1 | 0.58 | 0.35 | 0.53 | 0.85 | inactive |
| PBOV1 | 1 | -0.67 | -1.04 | -0.74 | -0.22 | inactive |
| SCN7A | 1 | -0.19 | -0.08 | -0.36 | -0.12 | inactive |
| SPESP1 | 1 | -0.87 | -1.22 | -0.65 | -0.75 | inactive |
| GRIN3B | 1 | 1.37 | 1.29 | 1.73 | 1.11 | inactive |
| PCDH11X | 1 | 0.24 | 0.33 | 0.09 | 0.29 | inactive |
| MALRD1 | 1 | -0.53 | -0.2 | -0.76 | -0.62 | inactive |
| CYRIA | 1 | -0.21 | -0.44 | 0.55 | -0.75 | inactive |
| BANP | 1 | -0.25 | -0.74 | -0.23 | 0.21 | inactive |
| LRSAM1 | 1 | -0.78 | -0.99 | -0.79 | -0.56 | inactive |
| KEL | 1 | -0.71 | -0.72 | -0.91 | -0.49 | inactive |
| SFXN4 | 1 | 1.15 | 1.14 | 1.2 | 1.12 | inactive |
| FABP1 | 1 | 1.14 | 1.45 | 1.08 | 0.9 | inactive |
| ATF7 | 1 | 0.22 | -0.26 | 0.24 | 0.67 | inactive |
| MEGF8 | 1 | -0.09 | -0.12 | -0.11 | -0.04 | inactive |
| MEGF8 | 2 | 1.22 | 0.95 | 1.62 | 1.08 | inactive |
| HERC3 | 1 | -2.1 | -2.15 | -2.08 | -2.07 | inactive |
| PPIAP24 | 1 | 1.23 | 1.07 | 1.09 | 1.54 | inactive |
| LOC402199 (retired record) | 1 | 0.21 | 0.15 | 0.16 | 0.32 | inactive |
| HES4 | 1 | 1.87 | 2.37 | 1.54 | 1.69 | inactive |
| CAAP1 | 1 | 0.38 | 0.74 | 0.13 | 0.27 | inactive |

No new results follow: an excerpt of the list.
| gene | reagent | mean z-score | z-score, replicate A | z-score, replicate B | z-score, replicate C | Call |
| --- | --- | --- | --- | --- | --- | --- |
| PBOV1 | 1 | -0.67 | -1.04 | -0.74 | -0.22 | inactive |
| SCN7A | 1 | -0.19 | -0.08 | -0.36 | -0.12 | inactive |
| SPESP1 | 1 | -0.87 | -1.22 | -0.65 | -0.75 | inactive |

Additional reagents:
| gene | reagent | mean z-score | z-score, replicate A | z-score, replicate B | z-score, replicate C | Call |
| --- | --- | --- | --- | --- | --- | --- |
| HSPA6 | 1 | 0.21 | 0.51 | 0.04 | 0.09 | inactive |
| S100A12 | 1 | -0.76 | -0.97 | -0.69 | -0.62 | inactive |
| MIER2 | 1 | -1.65 | -1.44 | -1.73 | -1.78 | inactive |
| RALA | 1 | -0.15 | 0.05 | -0.4 | -0.09 | inactive |
| GLS2 | 1 | 2.56 | 2.84 | 2.75 | 2.11 | active |
| TTYH1 | 1 | 0.29 | 0.29 | 0.55 | 0.03 | inactive |
| CORO1B | 1 | -1.59 | -1.72 | -1.48 | -1.57 | inactive |
| HDAC7 | 1 | 0.15 | 0.39 | 0.06 | 0 | inactive |
| ZDHHC1 | 1 | -0.37 | -0.15 | -0.44 | -0.51 | inactive |
| RALBP1 | 1 | -1.06 | -1.16 | -0.93 | -1.08 | inactive |
| GATAD2B | 1 | 0.45 | 0.68 | 0.52 | 0.14 | inactive |
| AK2 | 1 | 0.3 | 0.23 | 0.3 | 0.38 | inactive |
| NCALD | 1 | -0.56 | -0.6 | -0.7 | -0.38 | inactive |
| CHAF1A | 1 | 4.49 | 4.55 | 4.64 | 4.27 | active |
| FAH | 1 | -1.02 | -1.35 | -1.35 | -0.36 | inactive |
| LOC402286 (retired record) | 1 | 0.62 | 0.82 | 0.49 | 0.56 | inactive |
| AMIGO2 | 1 | 0.68 | 0.81 | 0.98 | 0.23 | inactive |
| DBF4B | 1 | 0.05 | 0.53 | 0.04 | -0.41 | inactive |
| KCNK17 | 1 | 0.35 | 0.46 | 0.02 | 0.58 | inactive |
| ZNF333 | 1 | -0.53 | -0.39 | -0.39 | -0.82 | inactive |
| FUNDC2P1 | 1 | -0.46 | -0.29 | -0.9 | -0.19 | inactive |
| OLFML2B | 1 | 0.53 | 0.32 | 0.77 | 0.49 | inactive |
